In patent publication US11185511B2, “Antifungal topical composition and methods of treatment” (priority 2013, dated 2021):

Key:
C albicans cells = test: Fluorescence microscopy of cellular delivery of berberine; assay type: cell-based, Candida albicans
[1] = Fluorescence and absorbance studies of interaction with PHMB; assay type: physicochemical; settings: 1:6 ratio between ketoconazole and PHMB

| SMILES | Delivery of berberine into C albicans (green fluorescence of cytoplasm) (C albicans cells; 1 μg/ml of berberine alone) | Delivery of berberine into C albicans (fluorescence of cells) (C albicans cells; berberine combined with PHMB (FIG. 6: 1 μg/ml berberine and 1.25 μg/ml PHMB), compared with berberine alone) | Fluorescence in presence of PHMB (dropped to) [1] [%] |
| --- | --- | --- | --- |
| COc1ccc2cc3[n+](cc2c1OC)CCc1cc2c(cc1-3)OCO2 [Berberine] | delivery of small amount of berberine | considerable increase in fluorescence of cells; also recorded: increased delivery of berberine | – |
| CC(=O)N1CCN(c2ccc(OCC3COC(Cn4ccnc4)(c4ccc(Cl)cc4Cl)O3)cc2)CC1 (stereo not drawn) [Ketoconazole] | – | – | ~50 |

“Also recorded” adds a separate entry of the source.
